# Tested on: NiV-F ectodomain (residues G26-D482) with C-terminal GCNt trimerization motif, prefusion, uncleaved, Nipah virus, Q9IH63 26-482
# Assay: crystal structure
substance,measurement,value
"NiV-F ectodomain (residues G26-D482) with C-terminal GCNt trimerization motif, prefusion, uncleaved",result,binds
